Results of unrelated studies side by side (data: NIAID ChemDB).

All rows: target-level tests; agent: Hepatitis C virus; protein: NS3/NS4A protease; read-out: IC50

Blank or dashed fields: not listed here. Conditions beyond the fields shown may differ between rows. ICn is the concentration giving n% inhibition. Two numbers with a dash give a range or band.

| smiles | strain or isolate | value |
|---|---|---|
| C=C[C@@H]1C[C@]1(NC(=O)[C@@H]1C[C@@H](Oc2cc(-c3ccccc3)nc3cc(OC)ccc23)CN1C(=O)[C@@H](NC)C(C)(C)C)C(=O)NS(=O)(=O)C1CC1 | BMS | <0.05 µM |
| CSCC[C@H](NC(=O)[C@H](CCC(=O)O)NC(=O)[C@H](CC(=O)O)NC(=O)CCC(=O)O)C(=O)NCC(=O)N[C@@H](CCC(=O)O)C(=O)N[C@H](C=O)CC(F)(F)F | - | 1 µM |
| C=C[C@H]1C[C@@]1(NC(=O)[C@@H]1C[C@@H](Oc2ccnc3cc(Cl)ccc23)CN1C(=O)[C@@H](NC(=O)OC1CCCC1)C(C)(C)C)C(=O)NS(=O)(=O)C1(CC2CC2)CC1 | BMS | <0.05 µM |
| C=C[C@@H]1C[C@]1(NC(=O)[C@@H]1C[C@@H](Oc2cc(-c3ccccc3)nc3cc(OC)ccc23)CN1C(=O)[C@@H](NC(=O)OC(C)(C)C)C1CCCC1)C(=O)NS(=O)(=O)C1CCC1 | BMS | <0.5 µM |
| C=CC1CC1(NC(=O)[C@@H]1C[C@@H](OC(=O)Nc2cc(OC)ccc2-n2cccn2)CN1C(=O)[C@@H](NC(=O)OC(C)(C)C)C(C)(C)C)C(=O)NS(=O)(=O)C1CC1 | BMS/H77C/J416S | <0.1 µM |
| C=CC1C[C@@]1(NC(=O)[C@@H]1C[C@@H](Oc2cc(-c3ccccc3)nc3cc(OC)ccc23)CN1C(=O)[C@@H](NC(=O)Oc1ccccc1OC)C(C)(C)C)C(=O)NS(=O)(=O)C1(Cc2ccccc2)CC1 | BMS | 0.05–0.5 µM |
| C=C[C@@H]1C[C@]1(NC(=O)[C@@H]1C[C@@H](Oc2cc(-c3ccccc3)nc3cc(OC)ccc23)CN1C(=O)[C@@H](NC(=O)OC(C)(C)C)C(C)(C)C)C(=O)NS(=O)(=O)c1ccc(C)cc1 | BMS | <0.05 µM |
| C#CC[C@@H](C=O)C(=O)[C@H](CCC(=O)O)NC(=O)[C@@H](CCC(=O)O)NC(=O)[C@H](Cc1ccc(OC)cc1)NC(=O)[C@H](CCC(=O)O)NC(=O)[C@H](CC(=O)O)NC(=O)CCC(=O)O | - | 36 µM |
| C=CC1CC1(NC(=O)[C@@H]1C[C@@H](Oc2cc(-c3ccccc3)nc3cc(OC)ccc23)CN1C(=O)[C@@H](NC(=O)OC(C)(C)C)C(C)(C)C)C(=O)NS(=O)(=O)C1(C(=O)Cc2ccccc2)CC1 | BMS | <0.05 µM |
| C=C[C@@H]1C[C@]1(NC(=O)[C@@H]1C[C@@H](Oc2cc(-c3ccccc3)nc3cc(OC)ccc23)CN1C(=O)[C@@H](NC(=O)OCCF)C(C)(C)C)C(=O)NS(=O)(=O)C1CC1 | BMS | <0.05 µM |
| C=CC1CC1(NC(=O)[C@@H]1C[C@@H](OC(=O)N(C)C)CN1C(=O)[C@@H](NC(=O)OC(C)(C)C)C(C)(C)C)C(=O)NS(=O)(=O)C1CC1 | BMS/H77C/J416S | 0.1–1 µM |
| C#CC[C@@H](C=O)C(=O)[C@H](CCC(=O)O)NC(=O)[C@@H](Cc1ccccc1)NC(=O)[C@H](CCSC)NC(=O)[C@H](CCC(=O)O)NC(=O)[C@H](CC(=O)O)NC(=O)CCC(=O)O | - | 5 µM |
| C=CC1CC1(NC(=O)[C@@H]1C[C@@H](Oc2cc(-c3ccccc3)nc3cc(OC)ccc23)CN1C(=O)[C@@H](NC(=O)OC(C)(C)C)C(C)(C)C)C(=O)NS(=O)(=O)C1(C2=CCCCC2)CC1 | BMS | 0.05–0.5 µM |
| C=C[C@@H]1C[C@]1(NC(=O)[C@@H]1C[C@@H](Oc2cc(-c3ccccc3)nc3cc(OC)ccc23)CN1C(=O)[C@@H](NC(=O)OC(C)(C)C)C(C)(C)C)C(=O)NS(=O)(=O)c1cccc2ccccc12 | BMS | <0.05 µM |
| C=C[C@H]1C[C@@]1(NC(=O)[C@@H]1C[C@@H](Oc2cc(-c3ccccc3)nc3cc(OC)ccc23)CN1C(=O)[C@@H](NC(=O)OC1CCOCC1)C(C)(C)C)C(=O)NS(=O)(=O)C1(Cc2ccccc2)CC1 | BMS | <0.05 µM |
| CCC[C@@H](C=O)NC(=O)[C@H](CC(C)C)NC(=O)[C@@H](NC(=O)[C@H](Cc1ccccc1C)NC(=O)[C@H](CCC(=O)O)NC(=O)[C@H](CC(=O)O)NC(=O)CCC(=O)O)C(C)(C)C | - | 0.145 µM |
| C=C[C@@H]1C[C@]1(NC(=O)[C@@H]1C[C@@H](Oc2cc(-c3ccccc3)nc3cc(OC)ccc23)CN1C(=O)[C@@H](NS(=O)(=O)C1CC1)C(C)(C)C)C(=O)NS(=O)(=O)C1CC1 | BMS | <0.05 µM |
| C=CC1CC1(NC(=O)[C@@H]1C[C@@H](OC(=O)Nc2cc(C(=O)OCC)ccc2N2CCCCC2)CN1C(=O)[C@@H](NC(=O)OC(C)(C)C)C(C)(C)C)C(=O)NS(=O)(=O)C1CC1 | BMS/H77C/J416S | <0.1 µM |
| C=CC1CC1(NC(=O)[C@@H]1C[C@@H](Oc2cc(-c3ccccc3)nc3cc(OC)ccc23)CN1C(=O)[C@@H](NC(=O)OC(C)(C)C)C(C)(C)C)C(=O)NS(=O)(=O)C1(CC2CC2)CC1 | BMS | <0.05 µM |
| C=CC1CC1(NC(=O)[C@@H]1C[C@@H](OC(=O)Nc2ccccc2SC)CN1C(=O)[C@@H](NC(=O)OC(C)(C)C)C(C)(C)C)C(=O)NS(=O)(=O)C1CC1 | BMS/H77C/J416S | <0.1 µM |
| CCCNC(=O)N[C@H](C(=O)N1C[C@H](Oc2cc(-c3ccccc3)nc3cc(OC)ccc23)C[C@H]1C(=O)N[C@]1(C(=O)NS(=O)(=O)C2CC2)C[C@H]1CC)C(C)C | BMS | <0.05 µM |
| C=C[C@H]1C[C@@]1(NC(=O)[C@@H]1C[C@@H](Oc2cc(-c3ccccc3)nc3cc(OC)ccc23)CN1C(=O)[C@@H](NC(=O)OC(C)(C)C)C(C)(C)C)C(=O)NS(=O)(=O)C1(C=C(C)C)CC1 | BMS | <0.05 µM |
| C=CC1CC1(NC(=O)[C@@H]1C[C@@H](OC(=O)Nc2cccc(C(F)(F)F)c2)CN1C(=O)[C@@H](NC(=O)OC(C)(C)C)C(C)(C)C)C(=O)O | BMS/H77C/J416S | >10 µM |
| C=C[C@H]1C[C@@]1(NC(=O)[C@@H]1C[C@@H](Oc2cc(-c3ccccc3)nc3cc(OC)ccc23)CN1C(=O)[C@@H](NC(=O)OC(C)(C)C)C(C)(C)C)C(=O)NS(C)(=O)=O | BMS | <0.5 µM |

A second listing of 3 rows from above:

{"smiles": "C=CC1CC1(NC(=O)[C@@H]1C[C@@H](OC(=O)Nc2cc(OC)ccc2-n2cccn2)CN1C(=O)[C@@H](NC(=O)OC(C)(C)C)C(C)(C)C)C(=O)NS(=O)(=O)C1CC1", "strain or isolate": "BMS/H77C/J416S", "value": "<0.1 µM"}
{"smiles": "C=C[C@@H]1C[C@]1(NC(=O)[C@@H]1C[C@@H](Oc2cc(-c3ccccc3)nc3cc(OC)ccc23)CN1C(=O)[C@@H](NS(=O)(=O)C1CC1)C(C)(C)C)C(=O)NS(=O)(=O)C1CC1", "strain or isolate": "BMS", "value": "<0.05 µM"}
{"smiles": "C=C[C@@H]1C[C@]1(NC(=O)[C@@H]1C[C@@H](Oc2cc(-c3ccccc3)nc3cc(OC)ccc23)CN1C(=O)[C@@H](NC(=O)OC(C)(C)C)C(C)(C)C)C(=O)NS(=O)(=O)c1cccc2ccccc12", "strain or isolate": "BMS", "value": "<0.05 µM"}